Source: the supplement of paper PMC9931576
Numbering of substitutions follows the chain as printed. Human monoclonal antibodies against the spike receptor-binding domain (heavy:light variable regions). IC50 against pseudoviruses bearing the spike of naturally observed variants; lower = stronger; >10 µg/ml means not reached at the top dose. No active / inactive call. The stated detection limit is 0.0005 µg/ml; values near or below 0.001 µg/ml lie at the floor of the assay.

B1: BD56-107 (protein)
chain 1: EVHLVESGGGLVQPGGSLRLSCAVSGFTFSTYDMHWVRQVAGKGLEWVAGIGTAGDTYYLDSVKGRFTISRENAENSLYLQMNSLRAGDTAVYYCTRANFNFLTGYTPHFDYWGQGTLVTVSS
chain 2: DIQMTQSPSSLSASVGDRVTITCRASQYISTNLNWYQQKPGRAPKLLIYAASNLQSGVPSRFSGSGSGTDFTLTISSLRPEDFAIYHCQQSHSTPGLTFGQGTRLEIK
B2: BD56-121 (protein)
chain 1: EVQLVESGGGLVKPGGSLRLSCAASGFSFNNYEMNWVRQAPGKGLEWVSYISRSGGPIYYADSVKGRFTISRDNAKNSLYLQMNSLRVEDTAVYYCARDFDWLLDDEPGAFDIWGQGTMVTVSS
chain 2: EIVLTQSPGTLSLSPGERATLSCRASQSVSSTYLAWYQQKPGQAPRLLIYGALSRAAGIPDRFSGSGSGTDFTLTISRLEPEDFAVYYCQQYGSSALTFGGGTKVEIK
B3: BD56-104 (protein)
chain 1: QVQLVQSGAEVKTPGSSVKVSCKASGGTFGSHSITWVRQAPGQGLEWMGRVIPILGIPDFAESFQGRVAITADRSTSTAHMELSRLRSEDTAVYYCARDVGYSGSGSSNYFDSWGQGTLVTVSS
chain 2: QSVLTQPPSVSGAPGQRVTISCTGSNSNIGAGYDVHWYRQLPGTAPKLLIYVNNNRPSGVPDRFSGSRSGASASLAITGLQAEDEAEYYCQSYDSSLSGSIFGGGTKLTVL
B4: BD56-113 (protein)
chain 1: QVQLVQSGAEVKKPGSSVKVSCKASGGTFNNYPISWVRQAPGQGLEWMGSIIPIIGIATYAQKFQGRVTITADKSTSTAYMQLSSLRSEDTAVFYCARGVGYSGSGSSNYFDYWGQGTLVTVSS
chain 2: B3 chain 2 with P61S, R68K, A71T, E87D, S98I, I101V
B5: BD56-123 (protein)
chain 1: EVQLVESGGGLGQPGGSLRLSCAASGFSFSRYWMHWVRQAPGKGLVCVSSINRDGSSTGYADSVKGRFTISRDNAKNTLYLQMNSLRAEDTAVYYCARDPRHPPNWNYDPPLDYYYGMDVWGQGATVTVSS
chain 2: SYVLTQPPSVSVAPGQTARITCGGDNIGSKSVHWYQQRPGQAPTLVIYDDSHRPSGIPERFSGSNSGNMATLTISRVEAGDEADYYCQVWESSSDHPVFGGGTKLTVL
B6: BD56-111 (protein)
chain 1: QVHLVESGGGVVQPGRSLRLACAASGFTFSSYSMHWVRQAPGKGLEWVAVILYDGSYRDYTDSVKGRFTISRDNSKNTLYLQLNSPRPEDTAVYYCARDEGATVTHFDYWGQGTLVTVS
chain 2: DIQMTQSPSSLSASVGDRVTITCRASQSVRRDVNWYQQKSGKAPKLLIYSASSVQSGVPSRFSGSGSGTEFTLTISSLQPEDFATYYCQQSYNTPPWTFGQGTKVEIK
B7: BD56-112 (protein)
chain 1: QVQLVQSGAEVKKPGSSVKVSCKASESTFSSYAINWVRQAPGQGLEWMGGIVPIFGTTDYAQKFEGRVTITADESTSTAYMDLSSLRSDDTALYYCARDLEYSPLYGMDVWGQGTTVTVSS
chain 2: DIQLTQSPSTLSASVGDRVTITCRPSQSISTYLNWYQQKPGSNPKLLIYAASTLQSGVPSRFSGSGSGTGFTLTISSLQPEDFATYYCQQSYSTPRTFGQGTKLEIK
B8: BD56-100 (protein)
chain 1: EVQLLVSGGGLVRPGGSLRLSCAASGFTFSTCAMTWVRQAPGKGLECVSVIHGGGNSTYYAESVRGRFTIYRDTSKNTLYLQMNSLRADDTAIYYCAKSPQARTTLELRGAPDYFDFWGQGTLVSVSS
chain 2: SYVLTQPPSVTVAPRQTARVTCGGDDIGSKSVHWYQQKPGQAPVLVIYYDNDRPSGIPERFSGSNSGNTATLTISRVEAGDEADYYCQVWDGTSAHFWVFGGGTKLTVL
B9: BD56-114 (protein)
chain 1: B8 chain 1 with R13Q, T31S, H52Y, E62D, R65K, A102P
chain 2: B8 chain 2
B10: BD56-099 (protein)
chain 1: QVQLQESGPGLVKPSQTLSLTCTVSGGSISSGSYYWSWIRQPAGKGLEWIGRIYPTGSTNYNPSLKSRVAISVDTSKKQFYLKLSSVTAADTAVYYCVRERNPTIFEVADDLPEVCWGQGTLVTVSS
chain 2: DIQMTQSPSSLSASVGDRVTITCQASQDISNYLNWYQQKPGKAPKLLIYDASNLETGVPSRFSGSGSGTDFTFTISSLQPEDIATYYCQQLDNLVTFGGGTKVEIK
B11: BD56-101 (protein)
chain 1: EVQLVESGGALVQPGGSLRLSCAASGFTFNDYDLHWVRQATGKGLEWVSGTGTAGDTYYSDSVKGRFTISRENAKNSLYLQMNGLRAADTAVYYCARGDSSSWEYYFDYWGQGTLVTVSS
chain 2: DIQMTQSPSSLSASVGDRVSITCRASQSIGSYLNWYQLRPGKAPKLLIYAASSLQSGVPSRFTGSGSGTYFTLTISSLQPEDFATYCCQQSYSAPPWTFGQGTKVEVK
B12: BD56-124 (protein)
chain 1: QVQLVQSGAEVRKPEASVKVSCKASGYTFTGYFIHWVRQAPGQGLEWLGWINPNSGGTSSAQKFQGRVTMTRDTSVTTAYMELSRLRSDDTAIYYCAREKNTGYIDFDPWGAFDVWGRGTMVTV
chain 2: QSALTQPASVSGSPGQSITISCTGTSSDVATYDLVSWYQQHPGKVPKLLIYEVTKRPSGVSDRFSGSKSGNTASLTISGLQAEDEADYYCCSYAGSGRVFGGGTKLTVL

Columns and labels:
Experiment in all cases: pseudovirus neutralization IC50; higher = weaker neutralization
[1] = target: SARS-CoV-2 Omicron BA.1 spike pseudovirus
Protocol: (§1)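 Single-round VSV luciferase pseudovirus mixed with antibody dilutions for 1 h and put on Huh-7 cells for about a day; IC50 from the dose curve.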

[2] = target: SARS-CoV-2 Omicron BA.2 spike pseudovirus
Protocol: as §1

[3] = target: SARS-CoV-2 Omicron BA.2.75 spike pseudovirus
Protocol: as §1

[4] = target: SARS-CoV-2 Omicron BA.5 spike pseudovirus
Protocol: as §1

[5] = target: SARS-CoV-2 Omicron BQ.1.1 spike pseudovirus
Protocol: as §1

[6] = target: SARS-CoV-2 Omicron XBB spike pseudovirus
Protocol: as §1

[7] = target: SARS-CoV-2 early D614G spike pseudovirus
Protocol: as §1

| Binder | pseudovirus neutralization IC50 [1] | pseudovirus neutralization IC50 [2] | pseudovirus neutralization IC50 [3] | pseudovirus neutralization IC50 [4] | pseudovirus neutralization IC50 [5] | pseudovirus neutralization IC50 [6] | pseudovirus neutralization IC50 [7] |
| --- | --- | --- | --- | --- | --- | --- | --- |
| B1 | > 10 µg/mL | 8.43 µg/mL | > 10 µg/mL | 8.63 µg/mL | > 10 µg/mL | > 10 µg/mL | 1.71 µg/mL |
| B2 | > 10 µg/mL | > 10 µg/mL | > 10 µg/mL | > 10 µg/mL | > 10 µg/mL | > 10 µg/mL | > 10 µg/mL |
| B3 | 0.0156 µg/mL | 0.0138 µg/mL | 0.0142 µg/mL | 0.0187 µg/mL | 0.836 µg/mL | 1.76 µg/mL | 0.0182 µg/mL |
| B4 | 0.693 µg/mL | 0.561 µg/mL | 0.464 µg/mL | 2.37 µg/mL | 7.54 µg/mL | > 10 µg/mL | 0.868 µg/mL |
| B5 | > 10 µg/mL | > 10 µg/mL | > 10 µg/mL | > 10 µg/mL | > 10 µg/mL | > 10 µg/mL | > 10 µg/mL |
| B6 | 3.22 µg/mL | 3 µg/mL | 2.97 µg/mL | 2.96 µg/mL | 7.3 µg/mL | 5.38 µg/mL | 1.7 µg/mL |
| B7 | 0.427 µg/mL | 0.251 µg/mL | 0.218 µg/mL | 3.59 µg/mL | > 10 µg/mL | > 10 µg/mL | 0.463 µg/mL |
| B8 | > 10 µg/mL | > 10 µg/mL | > 10 µg/mL | > 10 µg/mL | > 10 µg/mL | > 10 µg/mL | > 10 µg/mL |
| B9 | > 10 µg/mL | > 10 µg/mL | > 10 µg/mL | > 10 µg/mL | > 10 µg/mL | > 10 µg/mL | > 10 µg/mL |
| B10 | 0.0507 µg/mL | 0.031 µg/mL | 0.0433 µg/mL | > 10 µg/mL | > 10 µg/mL | > 10 µg/mL | 0.0566 µg/mL |
| B11 | > 10 µg/mL | > 10 µg/mL | > 10 µg/mL | > 10 µg/mL | > 10 µg/mL | > 10 µg/mL | > 10 µg/mL |
| B12 | 3.37 µg/mL | 3.22 µg/mL | 2.09 µg/mL | 3.11 µg/mL | 2.68 µg/mL | 2.65 µg/mL | 0.339 µg/mL |
